# Literature values, collected in patent US20020194634A1, “Insect control system” (priority 1999, published 2002).
# Details: boll weevil; cited from earlier work
compound,measurement,value
"COP(=O)(NC(C)=O)SC (stereo not shown) [Acephate, O, S-dimethyl acetylphosphoramidothicate]",metabolism of acephate to methamidophos,No metabolism
